Taken from: PubChem BioAssay AID624099 (ICCB-Longwood, 2012)
Purpose: 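Host factors E2 relies on to silence an HPV18 LCR reporter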 (primary screen). Cell system: human C33A cervical carcinoma cells (HPV-negative) stably expressing BPV1 E2 and an HPV18 LCR luciferase reporter. Reagents: siRNA pool against human genes, 40 nM. Timing: 72 h. Measured: 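Per-well luciferase luminescence, z-scored on each plate against the plate mean and SD with control wells left out, then averaged across three replicate plates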. Reading the numbers: mean z-score and z-score: higher = stronger reporter signal, weaker E2 silencing. Active means: 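Mean z ≥ 2 together with z ≥ 2 in two or more of the three replicates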.
This is one part, drawn at random, of about 21,000 deposited reagents. 497 of them (2.4%) count as active. 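Higher z means weaker E2 silencing; only reporter increases were scored, and knock-downs that hurt cell survival may mask genuine repressor factors.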 No sequences are given here.

| mean z-score | z-score, replicate A | z-score, replicate B | z-score, replicate C | activity call | target gene |
| --- | --- | --- | --- | --- | --- |
| 0.58 | 0.76 | 0.45 | 0.53 | inactive | HOXA2 |
| 1.86 | 1.76 | 1.91 | 1.9 | inactive | OSBP |
| -0.35 | -0.23 | -0.37 | -0.45 | inactive | EPN1 |
| -0.65 | -0.62 | -0.55 | -0.78 | inactive | FBXL7 |
| -0.87 | -0.63 | -0.85 | -1.13 | inactive | LOC388806 (retired record) |
| 0.77 | 0.83 | 0.71 | 0.76 | inactive | ACKR1 |
| 1 | 1.07 | 1.04 | 0.89 | inactive | PAX2 |
| -0.06 | 0.05 | -0.04 | -0.2 | inactive | TUBB4B |
| -0.45 | -0.07 | -0.83 | -0.44 | inactive | BOD1L1 |
| -0.71 | -0.42 | -0.54 | -1.17 | inactive | B4GALT1 |
| -1.17 | -0.86 | -1.33 | -1.31 | inactive | ASMT |
| -0.19 | -0.38 | 0.04 | -0.25 | inactive | ZNF253 |
| 0.34 | 0.73 | 0.08 | 0.2 | inactive | TXNRD3 |
| 1.61 | 1.49 | 1.59 | 1.74 | inactive | MPHOSPH8 |
| 1.25 | 1.24 | 1.41 | 1.09 | inactive | GAPDH |

Not a retest: 6 of the entries above.
| mean z-score | z-score, replicate A | z-score, replicate B | z-score, replicate C | activity call | target gene |
| --- | --- | --- | --- | --- | --- |
| 1 | 1.07 | 1.04 | 0.89 | inactive | PAX2 |
| -0.06 | 0.05 | -0.04 | -0.2 | inactive | TUBB4B |
| -0.45 | -0.07 | -0.83 | -0.44 | inactive | BOD1L1 |
| -0.71 | -0.42 | -0.54 | -1.17 | inactive | B4GALT1 |
| -1.17 | -0.86 | -1.33 | -1.31 | inactive | ASMT |
| -0.19 | -0.38 | 0.04 | -0.25 | inactive | ZNF253 |

Next results:
| mean z-score | z-score, replicate A | z-score, replicate B | z-score, replicate C | activity call | target gene |
| --- | --- | --- | --- | --- | --- |
| -0.14 | 0.27 | -0.27 | -0.41 | inactive | SLC34A1 |
| 0.85 | 0.93 | 0.89 | 0.73 | inactive | PPIL6 |
| 0.92 | 1.07 | 0.92 | 0.78 | inactive | CASP9 |
| 1.39 | 1.35 | 1.39 | 1.43 | inactive | EHD1 |
| 0.69 | 0.9 | 0.99 | 0.16 | inactive | POLR2MP1 |
| -1.63 | -1.82 | -1.51 | -1.56 | inactive | ZNF592 |
| -0.47 | -0.55 | -0.52 | -0.32 | inactive | UBXN7 |
| -0.74 | -0.74 | -0.76 | -0.73 | inactive | MOGAT2 |
| 0.05 | 0.25 | 0.05 | -0.16 | inactive | RAPH1 |
| 1.43 | 1.63 | 1.23 | 1.44 | inactive | CX3CR1 |
| -0.38 | -0.13 | -0.57 | -0.43 | inactive | GRIK4 |
| 1.61 | 1.68 | 1.73 | 1.42 | inactive | BRAP |
| 0.37 | 0.65 | 0.55 | -0.09 | inactive | KCNC2 |
| 0.69 | 0.78 | 0.36 | 0.94 | inactive | LINC01312 |
| 0.99 | 0.93 | 1.03 | 1 | inactive | KRTAP4-2 |
| -0.19 | -0.14 | 0.05 | -0.48 | inactive | GSDMA |
| -0.09 | 0.21 | 0.07 | -0.54 | inactive | CDKN1B |
| -1.6 | -1.41 | -1.78 | -1.6 | inactive | CPQ |
| -0.96 | -0.85 | -1.28 | -0.76 | inactive | CHCT1 |
| -0.29 | -0.09 | -0.3 | -0.47 | inactive | RPS6KA3 |
| 0.39 | 0.12 | 0.39 | 0.66 | inactive | NELL2 |
| -1.23 | -1.25 | -1.47 | -0.99 | inactive | SS18 |
| -0.36 | -0.75 | -0.24 | -0.1 | inactive | PSMB1 |
| 0.35 | 0.3 | 0.42 | 0.32 | inactive | GJD3 |
